Measurements taken from article PMC9784969, “SARS-CoV-2 Inhibitors Identified by Phenotypic Analysis of a Collection of Viral RNA-Binding Molecules” (Pharmaceuticals, 2022).

Columns and labels:
in vitro = conditions: African green monkey, uninfected Vero E6 cells
Vero E6 cells = conditions: African green monkey
293T-ACE2 cells = conditions: human

Molecule: CCC(=C(c1ccc(OC)cc1)c1ccc(OC)cc1)c1cn(CC(O)CN(C)C)c2ccccc12 (stereo not drawn) [Bisphenylindol]
- CC50 at 2 days (in vitro): 5.58 µM

Molecule: CCN(CC)CCNc1cc(-c2cccs2)nc2ccccc12 [1d]
- CC50 at 2 days (in vitro): 6.86 µM

Molecule: Trans-clomiphene
- CC50 (Vero E6 cells): 5.58 µM
- CC50 (293T-ACE2 cells): 47.1 µM

Molecule: Cis-clomiphene
- CC50 (Vero E6 cells): 6.86 µM
- CC50 (293T-ACE2 cells): 6.87 µM
